Primary screen of a compound library

A: 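Phenotypic screen: M. tuberculosis growth, glucose 7H9 medium, 3 days; the read-out is not stated. Compounds at 50 µM. Direction is inferred from retests: higher values go with more growth inhibition. Of about 69,000 compounds tested this way, about 760 (1.1%) reached 50% or more in at least one test.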
B: 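Growth of Mycobacterium tuberculosis over 4 days (cholesterol / DPPC medium with tyloxapol); the read-out is not stated. Concentration: 50 µM. Higher reads as more growth inhibition (inferred: compounds with an IC50 in retests scored well above the rest). About 69,000 compounds were tested under these conditions; 0.54% (about 370) showed 50% or more at least once.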

Each number is a percent effect as filed. How 0% and 100% were set is not recorded. Most values in the screen are low, and negative values occur. The entries come from a sample that favours strong results. Two or more numbers in one place are separate tests of the same structure; such repeats can differ widely. A dash means the value is not listed here; it may have been measured.

{"compound": "CN(Cc1cccc(OC(F)(F)F)c1)C(=O)c1cnsn1", "A": 35.56, "B": 50.44}
{"compound": "O=C(C1CCC1)N1CCC2(CCN(Cc3cccc(F)c3)CC2)CC1.O=C(O)C(F)(F)F", "A": "-5.331 & -40.93", "B": -8.465}
{"compound": "COCc1noc(-c2ccc(N(C)Cc3ccc(C)o3)nc2)n1", "B": "55.63 & 40.27"}
{"compound": "COCCNc1cc(-c2ccccc2CCN)c2cc[nH]c2n1", "A": 24.08}
{"compound": "COc1ccc(C)cc1CN1CCN(Cc2nccn2C)CC1", "A": "1.127 & 9.306", "B": 4.975}
{"compound": "Cc1ccc(NC2CCCN(Cc3ccc(Cl)cc3)C2)nn1", "stereo": "centres undefined", "A": 66.25, "B": "64.21 & 80.04"}
{"compound": "CCc1[nH]c2c(CNc3cncc(C(=O)OC)n3)cc(C)cc2c1C", "A": -54.69, "B": 3.758}
{"compound": "CCN(C(=O)COC)C(c1ccc(Cl)cc1)c1ccccn1", "stereo": "centres undefined", "B": 11.22}
{"compound": "COc1ccc(-c2noc(CN3CC(n4cc(C)cn4)C3)n2)cc1", "A": 46.07, "B": 38.92}
{"compound": "O=C(c1ccc2c(c1)OCCO2)N1CCCC(n2ccnc2)C1", "stereo": "centres undefined", "B": -13.67}
{"compound": "O=C(CCCc1ccccn1)N1CCSC2(CCCCC2)C1", "A": 12.04}
{"compound": "COCCN1CCN(c2ccc(C)nn2)Cc2cccnc21.O=C(O)C(F)(F)F", "A": "3.519 & 14.19"}
{"compound": "Cn1nccc1C(=O)N1CCC(n2cc(-c3ccsc3)nn2)CC1", "B": 0.1361}
{"compound": "O=C(c1ccc(Br)o1)N1CCN(Cc2ccc(OC(F)(F)F)cc2)CC1", "A": "28.43 & 38.24", "B": 70.77}
{"compound": "Cc1cccc(NCc2ncc(C(C)(C)C)o2)c1", "A": "28.57 & 33.2"}
{"compound": "FC(F)Oc1ccccc1CN1CCCC(c2nccn2CC2CC2)C1", "stereo": "centres undefined", "A": "70.91 & 31.53"}
{"compound": "O=C(CNc1cccc(S(=O)(=O)C(F)F)c1)NCc1ccco1", "A": -20.76, "B": -7.526}
{"compound": "CC(C)CN1CCCC2(CCN(c3ccccn3)C2)C1.O=C(O)C(F)(F)F", "stereo": "centres undefined", "A": -22.3}
{"compound": "COc1ccc(OCc2nccc(-c3cc(C(=O)O)ccn3)n2)cc1", "B": 18.21}
{"compound": "O=C(NCC(=O)N1CCCCC1)c1ccoc1", "B": -23.71}
{"compound": "CCC(C)NC(=O)c1nnn(-c2ccc(Br)cc2)n1", "stereo": "centres undefined", "A": 35.4}
{"compound": "CC(C)c1nc(N2CCC(N3CCSCC3)CC2)c2cnn(C)c2n1", "A": 40.12}
{"compound": "COc1ccc(Oc2ncccc2C(F)(F)F)cc1CN1CCCC1", "A": "-22.17 & 19.49"}
{"compound": "Cc1cc(C(O)CCNC(=O)c2ccc(Cl)s2)c(C)o1", "stereo": "centres undefined", "A": 52.83}
{"compound": "CCCn1nccc1C(=O)Nc1ncc(C)s1", "A": "-18.8 & 14.15"}
{"compound": "O=C(O)C(F)(F)F.[H][C@@]12CN(CC(C)C)C[C@]1([H])C(=O)N(CC)C21CCN(C(=O)NC(C)C)CC1", "B": "10.72 & -2.25"}
{"compound": "CC(O)(CNc1ccc(Cl)c(C#N)n1)c1ccccc1", "stereo": "centres undefined", "A": 58.3, "B": 30.46}
{"compound": "O=C(Nc1cc[nH]n1)c1ccc(COCC(F)(F)F)cc1", "A": 42.66, "B": -3.729}
{"compound": "Cc1ccc(C(O)CNC(=O)c2cccnc2O)cc1", "stereo": "centres undefined", "A": 25.32}
{"compound": "CCc1c(C)sc2ncnc(N3CC[C@@H](N4CCOCC4)[C@H](O)C3)c12", "A": 50.45}
{"compound": "CN1CCCCC1c1ncc2c(n1)CCN(Cc1ccc(Cl)c(F)c1)C2", "stereo": "centres undefined", "A": 48.75}
{"compound": "Cc1n[nH]cc1CNCC(c1cccc(F)c1)N(C)C", "stereo": "centres undefined", "A": "11.54 & 3.754"}
{"compound": "COc1cc(OC)cc(N2CCC(NCc3cc[nH]n3)C2)c1", "stereo": "centres undefined", "A": 4.076, "B": 0.8222}
{"compound": "CC(C)Cc1ncc2c(n1)CN(c1nccc(N(C)C)n1)C2", "A": "-83.81 & -1.8"}
{"compound": "Cc1cc2c(=O)n3c(nc2s1)CCN(C(=O)c1scnc1C)CC3", "A": 21.29}
{"compound": "CCc1ccc2nc(NCC(O)CO)cc(C)c2c1", "stereo": "centres undefined", "A": -6.595}
{"compound": "FC(F)(F)Sc1ccc(NCc2nnc(C3CC3)o2)cc1", "A": 39.15, "B": 52.15}
{"compound": "COc1cccc2c1OCC(C(=O)N1CCC(N3CCOC3=O)CC1)C2", "stereo": "centres undefined", "A": 8.73}
{"compound": "Cc1ccc2c(c1)OCCCC2NCc1nccn1Cc1ccccc1", "stereo": "centres undefined", "A": 42.78}
{"compound": "CCC(=O)c1cccc(S(=O)(=O)NC(C)C#N)c1", "stereo": "centres undefined", "A": "-2.893 & 0.4562"}
{"compound": "NCCn1nc(C2CCN(Cc3ccccc3)C2)c2nccnc21", "stereo": "centres undefined", "B": 7.931}

The last 2 entries again:

Compound	A	B
CCC(=O)c1cccc(S(=O)(=O)NC(C)C#N)c1 (centres undefined)	-2.893% & 0.4562%	-
NCCn1nc(C2CCN(Cc3ccccc3)C2)c2nccnc21 (centres undefined)	-	7.931%

Measurements from “University of Dundee, Small-Polar-MMV Screening Library” (2021), ChEMBL document CHEMBL3988442.